Assay results reported in US20130190228A1.

Biological target: hemagglutinin (HA) of A/PuertoRico/8/34 (PR/8, H1N1) influenza virus (influenza A virus A/PuertoRico/8/34 (H1N1)), P03452
Test: cell-based or functional assay

Binder | % inhibition of hemagglutination (10 µM peptide, 64 HAU PR/8, vs mock) [%] | EC50 of hemagglutination inhibition (PR/8, 64 HAU) [nM] | % inhibition of hemagglutination (10 µM peptide, PR/8; 10 µM EB = 100%) [%] | EC50 of hemagglutination inhibition (PR/8) [nM]
RRKKAAVALLPAVLLA (modifications not checked) [SEQ. ID. NO: 5] | 96 | 2800 |  | 
RRKKAAVALLPAVLL (modifications not checked) [SEQ. ID. NO: 6] | 0 |  |  | 
RRKKAAVALLPAVL (modifications not checked) [SEQ. ID. NO: 7] | 0 |  |  | 
RRKKAAVALLPAV (modifications not checked) [SEQ. ID. NO: 8] | 0 |  |  | 
RRKKAAVALLPA (modifications not checked) [SEQ. ID. NO: 9] | 0 |  |  | 
RRKKAAVALLP (modifications not checked) [SEQ. ID. NO: 10] | 4 |  |  | 
RRKKAAVALL (modifications not checked) [SEQ. ID. NO: 11] | 0 |  |  | 
RRKKAAVAL (modifications not checked) [SEQ. ID. NO: 12] | 0 |  |  | 
RRKKAAVA (modifications not checked) [SEQ. ID. NO: 13] | 0 |  |  | 
RRKKAAV (modifications not checked) [SEQ. ID. NO: 14] | 0 |  |  | 
RRKKAA (modifications not checked) [SEQ. ID. NO: 15] | 0 |  |  | 
RRKKA (modifications not checked) [SEQ. ID. NO: 16] | 0 |  |  | 
RRKK (modifications not checked) [SEQ. ID. NO: 17] | 0 |  |  | 
RRKKAVALLPAVLLALLAP (modifications not checked) [SEQ. ID. NO: 18] | 94 | 800 |  | 
RRKKVALLPAVLLALLAP (modifications not checked) [SEQ. ID. NO: 19] | 94 | 500 |  | 
RRKKALLPAVLLALLAP (modifications not checked) [SEQ. ID. NO: 20] | 94 | 700 |  | 
RRKKLLPAVLLALLAP (modifications not checked) [SEQ. ID. NO: 21] | 94 | 800 |  | 
RRKKAAVALLPAVLLALLA (modifications not checked) [SEQ. ID. NO: 2] | 94 | 500 |  | 
RRKKLPAVLLALLAP (modifications not checked) [SEQ. ID. NO: 22] | 94 | 900 | 100 | 
RRKKVLLALLAP (modifications not checked) [SEQ. ID. NO: 23] | 90 | 4000 |  | 
RRKKLLALLAP (modifications not checked) [SEQ. ID. NO: 24] | 0 |  |  | 
RRKKALLAP (modifications not checked) [SEQ. ID. NO: 25] | 0 |  |  | 

Binder | % inhibition of hemagglutination (10 µM peptide, 64 HAU PR/8, vs mock) [%] | EC50 of hemagglutination inhibition (PR/8, 64 HAU) [nM] | % inhibition of hemagglutination (10 µM peptide, PR/8; 10 µM EB = 100%) [%] | EC50 of hemagglutination inhibition (PR/8) [nM]
RRKKLLAP (modifications not checked) [SEQ. ID. NO: 26] | 0 |  |  | 
RRKKLAP (modifications not checked) [SEQ. ID. NO: 27] | 0 |  |  | 
RRKKAP (modifications not checked) [SEQ. ID. NO: 28] | 0 |  |  | 
RRKKP (modifications not checked) [SEQ. ID. NO: 29] | 0 |  |  | 
RRKKAALLVLAALAVLA (modifications not checked) [SEQ. ID. NO: 30] | 0 |  |  | 
RRKKLAALPLVLAAPLAVLA (modifications not checked) [EBX peptide (scrambled EB control)] | 0 |  | 0 | 
RRKKVALLAVLLALLA (modifications not checked) [SEQ. ID. NO: 32] |  | 500 |  | 
RRKKAAVALLAVLLALLA (modifications not checked) [SEQ. ID. NO: 43] | 95 | 1600 |  | 
RRKKLLAVLLALLA (modifications not checked) [SEQ ID NO: 44] | 95 | 3000 |  | 
RRKKLAVLLALLA (modifications not checked) [SEQ. ID. NO: 45] | 94 | 3000 | 100 | 3000
RRKKAAVALLPAVLLALL (modifications not checked) [SEQ. ID. NO: 3] | 95 | 600 |  | 
RRKKAAVALLPAVLLALLAP (modifications not checked) [EB peptide (entry blocker)] |  |  | 100 | 
RRKKAAAAAAAAA (modifications not checked) [SEQ ID NO: 49] |  |  | 87.5 | 
RKKLAVLLALLA (modifications not checked) [SEQ ID NO: 50] |  |  | 75 | 8000
RKAVLLALLA (modifications not checked) [SEQ ID NO: 51] |  |  | 50 | 
KLAVLLALLA (modifications not checked) [SEQ ID NO: 52] |  |  | 25 | 
KKLAVLLALLA (modifications not checked) [SEQ ID NO: 53] |  |  | 0 | 
EEDDLAVLLALLA (modifications not checked) [SEQ ID NO: 54] |  |  | 0 | 
RRKKLAVAAALLA (modifications not checked) [SEQ ID NO: 55] |  |  | 0 | 
RRKKLAVLLAAAA (modifications not checked) [SEQ ID NO: 56] |  |  | 0 | 
RRKKAAVALLPAVLLAL (modifications not checked) [SEQ. ID. NO: 4] | 89 | 3800 |  | 
